Experimental findings from publication PMC5537667 are described below.

By UniProt entry, the sequences of proteins in these tests, tags left out. Where a name states a change or a piece, a line headed by the entry shows the natural chain unless it says otherwise.
UniProt P48431: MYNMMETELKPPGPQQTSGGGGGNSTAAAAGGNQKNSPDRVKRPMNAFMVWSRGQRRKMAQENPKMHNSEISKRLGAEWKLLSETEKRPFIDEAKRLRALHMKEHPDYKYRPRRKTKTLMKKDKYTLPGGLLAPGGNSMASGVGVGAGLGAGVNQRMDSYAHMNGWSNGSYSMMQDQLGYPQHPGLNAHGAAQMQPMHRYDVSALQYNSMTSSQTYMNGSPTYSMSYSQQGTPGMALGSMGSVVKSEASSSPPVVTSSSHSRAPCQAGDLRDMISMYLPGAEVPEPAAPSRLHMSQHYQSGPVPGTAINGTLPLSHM

Construct, isoform or probe ends are uncertain for at least one entry. At least one result comes from cells or an extract, where the contact may be indirect.

The target of data set [1] is SOX2 (UniProt P48431). Put plainly: EMSA supershift. Particulars: protein in an extract, label: 32P end-label (unlabelled as competitor). A general note: In EMSA bound probe runs differently from free probe, usually more slowly.
Data set [2] has as its target SOX2 (UniProt P48431). The experiment in a line: competition with a labelled probe. Particulars: protein in an extract, label: 32P end-label (unlabelled as competitor).
The mark [3] stands for this setting: anti-SOX2 2500 ng reduces the complexes, no supershifted band reported.

“AACTGCACATGGGTGTGTGCAAACCGT (double strand) [S3 (HPV16 LCR site 3)]”: the binding result is on record as “binds” with SOX2 [1] (setting [3]); “binds” in the data set with SOX2 [2] (cold S3, 60 and 260 fold, against labelled CS: strong competition).

In the case of “TAGTCATACAATGTTCATTT (double strand) [CS (SOX2 consensus)]”, the binding result with SOX2 [1] (anti-SOX2 2500 ng gives supershift band, EMSA: 15 ug HeLa nuclear extract in 20 uL, 300 mM KCl, 15 mM MgCl2, 30% glycerol, 1 M DTT, 10 ug/uL BSA) is “binds”; with SOX2 [2] (cold CS, 50 and 250 fold (legend: 60/260), against labelled S1, S2 or S3: clear drop in complexes, EMSA: 15 ug HeLa nuclear extract in 20 uL, 300 mM KCl, 15 mM MgCl2, 30% glycerol, 1 M DTT, 10 ug/uL BSA), “binds”.

Turning to “AACCATTCCATTGTTTTTTA (double strand) [S1 (HPV16 LCR site 1)]”, the binding result in the data set with SOX2 [1] (setting [3]) was “binds”; in the data set with SOX2 [2] (cold S1, 60 and 260 fold, against labelled CS: strong competition), “binds”.

In the case of “TAGTCATACATTGTTCATTT (double strand) [S2 (HPV16 LCR site 2)]”, the binding result with SOX2 [1] (setting [3]) is given as “binds”; with SOX2 [2] (cold S2, 60 and 260 fold, against labelled CS: strong competition) it was “binds”.
